Measured values from several laboratories, pooled; numbers as filed in NIAID ChemDB.

Common to all: whole-cell or culture tests; species: HIV-1

ECn: concentration that inhibits the pathogen or its effect by n%. Two numbers with a dash give a range or band. Conditions beyond the fields shown may differ between rows. Blank or dashed fields: not listed here.

compound,changes,method,cells,strain or isolate,measure,value
Nc1cccc(CN2C(=O)N(Cc3cccc(N)c3)[C@H](Cc3ccccc3)[C@H](O)[C@@H](O)[C@H]2Cc2ccccc2)c1,,p24,MT-4,PR-WT,EC95,0.1–0.4 µM
COC(=O)[C@H](C)NP(=O)(OC[C@H]1C=C[C@@H](n2cnc3c(N)ncnc32)C1)Oc1ccc(Cl)c(Cl)c1,,cytopathic effect / trypan blue,MT-4,IIIB,EC50,0.12 µM
CNc1cccc2c1nc(-c1c(F)cccc1F)n2Cc1c(F)cccc1F,RT-K103N,cytopathic effect / MTT,MT-4,,EC50,10.2 µM
C[N+](C)(Cc1ccc(NC(=O)C2=Cc3cc(-c4ccc(N5CCCCC5)cc4)ccc3CCC2)cc1)C1CCOCC1,,β-galactosidase,MAGI + MAGI-CCR5,JR-FL,EC50,0.0013 µM
Cc1cc(C)cc(C(=O)c2cccnc2Oc2ccccc2)c1,,MTT,MT-4,IIIB,EC50,≥2.51 µM
C[N+]1(Cc2ccc(NC(=O)C3=Cc4cc(-c5ccccc5)ccc4CC3)cc2)CCCCCC1,,β-galactosidase,MAGI + MAGI-CCR5,JR-FL,EC50,0.82 µM
CC(C)(C)NC(=O)[C@@H]1C[C@@H]2CCCC[C@@H]2CN1C[C@@H](O)[C@H](Cc1ccccc1)NC(=O)[C@@H](NC(=O)c1ccc2ccccc2n1)[C@@H]1CCSC1,,p24,MT-4,IIIB,EC95,>0.2 µM
CC(C)CN(C[C@@H](O)[C@H](Cc1ccccc1)NC(=O)[C@H](CC(N)=O)NC(=O)c1ccc2ccccc2n1)C(=O)NC(C)(C)C,,p24,MT-4,PR-WT,EC95,0.05–0.2 µM
Nc1nc(=O)n([C@@H]2CS[C@@H](CO)S2)cc1F,,,MT-4,,EC50,>100 µg/mL
CC(C)(C)NC(=O)[C@@H]1C[C@@H]2CCCC[C@@H]2CN1C[C@@H](O)[C@H](Cc1ccccc1)NC(=O)[C@H](CC(N)=O)NC(=O)c1ccc2ccccc2n1,PR-L10F I84V,cytopathic effect / XTT,MT-4,IIIB,EC50,0.04 µM
CC(C)CN(C[C@@H](O)[C@H](Cc1ccccc1)NC(=O)O[C@H]1CCOC1)S(=O)(=O)c1ccc(N)cc1,K112M K113E V128I M200I H219P,p24 / ELISA,MT-2,IIIB,EC50,0.0473 µM
CC(C)(C)NC(=O)[C@@H]1C[C@@H]2CCCC[C@@H]2CN1C[C@@H](O)[C@H](Cc1ccccc1)NC(=O)[C@@H](NC(=O)c1ccc2ccccc2n1)[C@H]1CCOC1,,p24,MT-4,IIIB,EC50,<0.008 µM
Cc1cc(C)cc(C(=Nc2ccc(C(N)=O)cc2)c2cccnc2Cl)c1,,MTT,MT-4,RES056,EC50,>34.03 µM
Cc1cn([C@H]2C[C@H](N=[N+]=[N-])[C@@H](CO)O2)c(=O)[nH]c1=O,L441P,p24 / ELISA,MT-2,IIIB,EC50,0.153 µM
COC(=O)[C@H](C)NP(=O)(OC[C@H]1C=C[C@@H](n2cnc3c(N)ncnc32)C1)Oc1ccccc1,,cytopathic effect / trypan blue,MT-4,IIIB,EC50,0.045 µM
C[N+]1(Cc2ccc(NC(=O)C3=Cc4cc(-c5ccccc5)ccc4CC3)cc2)CCCCC1,,β-galactosidase,MAGI + MAGI-CCR5,JR-FL,EC50,1.2 µM
C[C@H](NP(=O)(OC[C@H]1C=C[C@@H](n2cnc3c(N)ncnc32)C1)Oc1ccccc1)C(=O)OCC(C)(C)C,,cytopathic effect / MTS,MT-4,IIIB,EC50,>4 µM
Fc1cccc(F)c1Cn1c(-c2c(F)cccc2F)nc2c(Br)cccc21,RT-K103N,cytopathic effect / MTT,MT-4,,EC50,10.2 µM
CC(C)(C)NC(=O)[C@@H]1C[C@@H]2CCCC[C@@H]2CN1C[C@@H](O)[C@H](Cc1ccccc1)NC(=O)[C@@H](NC(=O)c1cc(=O)c2ccccc2o1)[C@H]1CCOC1,,p24,MT-4,IIIB,EC50,<0.025 µM
COC(=O)[C@H](Cc1c[nH]c2ccccc12)NP(=O)(O)OC[C@H]1O[C@@H](n2cnc3cnccc32)[C@H](O)[C@@H]1O,,p24,PBL,A012 PRE-AZT,EC50,0.0044 µM
COC(=O)[C@@H](CCSC)NP(=O)(OC[C@H]1C=C[C@@H](n2cnc3c(N)ncnc32)C1)Oc1ccccc1,,cytopathic effect / trypan blue,MT-4,IIIB,EC50,4.07 µM
Cc1ccc(-c2ccc3c(c2)C=C(C(=O)Nc2ccc(C[N+](C)(C)C4CCOCC4)cc2)CCO3)cc1,,β-galactosidase,MAGI + MAGI-CCR5,JR-FL,EC50,0.002 µM
Cc1cc(C)cc(C(=O)c2cccnc2Nc2ccc(C#N)cc2)c1,,MTT,MT-4,IIIB,EC50,>128 µM
Nc1nc2c(ncn2[C@@H]2CS[C@@H](CO)S2)c(=O)[nH]1,,,MT-4,,EC50,>100 µg/mL
COC(=O)[C@H](C)NP(=O)(OC[C@H]1C=C[C@@H](n2cnc3c(N)ncnc32)C1)Oc1ccc([N+](=O)[O-])cc1,,cytopathic effect / MTS,MT-4,IIIB,EC50,0.18 µM
N#C[C@]1(CO)O[C@@H](n2cnc3c(N)ncnc32)C[C@@H]1O,,cytopathic effect / MTT,MT-4,IIIB,EC50,0.051 µM
Cc1cc(C#N)cc(C)c1Oc1nc(Nc2ccc(C#N)cc2)nc(N)c1Br,,MTT,MT-4,RES056,EC50,0.016 µM
O=c1[nH]cnc2c1ncn2[C@H]1CS[C@@H](CO)S1,,,MT-4,,EC50,>100 µg/mL
Cc1cc(C)cc(C(=O)c2cccnc2Nc2ccc(S(N)(=O)=O)cc2)c1,,MTT,MT-4,IIIB,EC50,>176 µM
CC(C)(C)NC(=O)[C@@H]1C[C@@H]2CCCC[C@@H]2CN1C[C@@H](O)[C@H](Cc1ccccc1)NC(=O)[C@@H](NC(=O)c1ccc2ccccc2n1)[C@@H]1CCOC1,,p24,MT-4,IIIB,EC50,<0.1 µM
CO[P@](=O)(c1cc(C)cc(/C=C/C#N)c1)c1c(C(N)=O)[nH]c2ccc(Cl)cc12,K103N,,,BH10,EC50,<0.0016 µM
C[N+](C)(Cc1ccc(NC(=O)C2=Cc3cc(-c4ccc(C(F)(F)F)cc4)ccc3OCC2)cc1)C1CCOCC1,,β-galactosidase,MAGI + MAGI-CCR5,JR-FL,EC50,0.0012 µM
Cc1ccnc2c1NC(=O)c1cccnc1N2C1CC1,,MTT,MT-4,IIIB,EC50,0.31 µM
COC(=O)[C@H](Cc1ccccc1)NP(=O)(O)OC[C@H]1C[C@@H](n2cnc3cnccc32)[C@H](O)[C@@H]1O,,p24,PBL,LAI,EC50,0.4 µM
Oc1cc(O)cc([C@@H]2c3c(/C=C/c4ccc(O)c(O)c4)cc(O)cc3O[C@H]2c2ccc(O)c(O)c2)c1,,,,IIIB,EC50,7 µg/mL
COC(=O)N[C@H](C(=O)N[C@@H](Cc1ccccc1)[C@@H](O)CN(Cc1ccc(-c2ccccn2)cc1)NC(=O)[C@@H](NC(=O)OC)C(C)(C)C)C(C)(C)C,R41K,p24 / ELISA,MT-2,IIIB,EC50,0.0008 µM
CC(=O)Nc1cccc2c1nc(-c1c(F)cccc1F)n2Cc1c(F)cccc1F,RT-V108I,cytopathic effect / MTT,MT-4,,EC50,2.82 µM
Cc1ccc(-c2ccc3c(c2)C=C(C(=O)Nc2ccc(C[N+]4(C)CCCCC4)cc2)CCC3)cc1,,β-galactosidase,MAGI + MAGI-CCR5,JR-FL,EC50,0.035 µM
O=c1[nH]c(=O)n([C@H]2CC[C@@H](CO)O2)cc1/C=C/c1ccccc1,,,MOLT-4,,EC50,10 µg/mL
CC(C)=CCOc1cc(NC(=S)c2ccoc2C)ccc1Cl,,syncytia,CEM,IIIB,EC50,0.0015 µg/mL
COC(=O)c1nc(Cl)c(N[C@H](C(=O)N[C@@H](Cc2ccccc2)[C@H](O)CN2C[C@H]3CCCC[C@H]3C[C@H]2C(=O)NC(C)(C)C)[C@H]2CCOC2)nc1N,,p24,MT-4,IIIB,EC50,<0.003 µM
Cc1ccc(-c2ccc3c(c2)C=C(C(=O)Nc2ccc(C[N+](C)(C)C4CCOCC4)cc2)CCC3)cc1,,β-galactosidase,MAGI + MAGI-CCR5,JR-FL,EC50,0.0012 µM
COC(=O)[C@H](Cc1ccc(O)cc1)NP(=O)(OC[C@H]1C=C[C@@H](n2cnc3c(N)ncnc32)C1)Oc1ccccc1,,cytopathic effect / MTS,MT-4,IIIB,EC50,0.95 µM
Nc1cccc2c1nc(-c1c(F)cccc1F)n2Cc1c(F)cccc1F,RT-V179D,cytopathic effect / MTT,MT-4,,EC50,0.3 µM

The first 3 rows once more:

compound | changes | method | cells | strain or isolate | measure | value
Nc1cccc(CN2C(=O)N(Cc3cccc(N)c3)[C@H](Cc3ccccc3)[C@H](O)[C@@H](O)[C@H]2Cc2ccccc2)c1 |  | p24 | MT-4 | PR-WT | EC95 | 0.1–0.4 µM
COC(=O)[C@H](C)NP(=O)(OC[C@H]1C=C[C@@H](n2cnc3c(N)ncnc32)C1)Oc1ccc(Cl)c(Cl)c1 |  | cytopathic effect / trypan blue | MT-4 | IIIB | EC50 | 0.12 µM
CNc1cccc2c1nc(-c1c(F)cccc1F)n2Cc1c(F)cccc1F | RT-K103N | cytopathic effect / MTT | MT-4 |  | EC50 | 10.2 µM